For one substance, Km results are on record in PMC3203990 (The FEBS journal, 2011).

The test system of the data set is O=[N+]([O-])c1ccc(OP(=O)(O)O)cc1. Put plainly: purified protein. The conditions noted are these: pH 5.5; 25.0 °C.

A word on the Km: it is the concentration of substrate that gives half-maximal velocity. Take “FtCCAP (Francisella tularensis class C acid phosphatase) (Francisella tularensis subsp. tularensis SCHU S4)”: the Km is 560 ± 40 µM.
